Results of unrelated studies side by side (data: NIAID ChemDB).

Common to all: cytotoxicity tests; read-out: CC50

CCn: concentration that lowers growth or viability of the cells by n%.

smiles,cells,read by,result
Nc1[nH]c(N=NC(=O)c2ccccn2)c2ccccc12,L6,,1368 nM
O=C(c1ccccc1)c1ccc(NC(=O)c2cc(Br)ccc2O)cc1,Mono Mac 6,MTT,21.8 µM
CNc1nc2cc(Cl)c(Cl)cc2n1COC(CO)CO,KB,,>100 µM
COc1ccc(Br)cc1C1CC(=O)c2ccccc2O1,CHO,MTS / absorbance,25.5 µM
COc1ccccc1CNC(=O)NCCc1ccc2c(n1)NCCC2,PBMC,,50 µM
COc1ccc(C2C3=C(CC(C)(C)CC3=O)Nc3ccccc3N2C(C)=O)cc1OCc1ccccc1,Huh7-CMV-Luc,,>32 µM
C[C@H]1COc2c(N3CCC4(CC3)OCCO4)c(F)c(N)c3c(=O)c(C(=O)O)cn1c23,Mammalian Vero cells,MTT,>149 µM
CCc1cn([C@@H]2O[C@H](CO)[C@@H](O)[C@@H]2O)c(=O)[nH]c1=O,CCRF-HSB-2,,>367 µM
O=C1[C@H]2Cc3c([nH]c4ccccc34)[C@@H](c3ccc4c(c3)OCO4)N2C(=O)CN1[C@@H]1CCN(Cc2ccc3c(c2)OCO3)C1,MRC-5 SV2,resazurin,39 µM
CCOc1ccnc(C(=O)N=Nc2[nH]c(N)c3ccccc23)c1,L6,,847 nM
OC[C@H]1O[C@@H](n2c(Br)nc3cc(Cl)c(Cl)cc32)[C@H](O)[C@@H]1O,KB,,>100 µM
O=S(=O)(Nc1ccc(Oc2ccc(Cl)cc2O)c(Cl)c1)c1ccc2ccccc2c1,Human foreskin fibroblasts,fluorescence,>10 µM
C[C@H]1COc2c(N3CCC(n4c(=O)[nH]c5cc(Cl)ccc54)CC3)c(F)cc3c(=O)c(C(=O)O)cn1c23,Mammalian Vero cells,MTT,>122 µM
O=C1[C@H]2Cc3c([nH]c4ccccc34)[C@@H](c3ccc4c(c3)OCO4)N2C(=O)CN1[C@@H]1CCN(CC2CCCCC2)C1,MRC-5 SV2,resazurin,6.6 µM
COc1ccc(C)cc1-c1oc2ccccc2c(=O)c1O,CHO,MTS / absorbance,25.5 µM
CCOC(=O)[C@@]1(C)CC[C@]2(C)CC[C@]3(C)C(=CC(=O)[C@@H]4[C@@]5(C)CC/C(=N\OCC6(C)COC6)C(C)(C)[C@@H]5CC[C@]43C)[C@@H]2C1,CT26,MTT,49.28 µM
CCCCN1C(=O)c2ccccc2N(C(=O)c2ccc(OC)cc2)S1(=O)=O,MRC-5,,57.2 µM
Cn1cc2c3ccccc3nc-2c2ccccc21,3T3,MTT,2.188 µM
CCOC(=O)c1ccc(CO/N=C2\CC[C@]3(C)[C@H]4C(=O)C=C5[C@@H]6C[C@@](C)(C(=O)OCC)CC[C@]6(C)CC[C@@]5(C)[C@]4(C)CC[C@H]3C2(C)C)o1,CT26,MTT,25.26 µM
CC1COc2c(N3CCN(Cc4ccc5c(c4)OCO5)CC3)c(F)c([N+](=O)[O-])c3c(=O)c(C(=O)O)cn1c23,Mammalian Vero cells,MTT,119 µM
Nc1ncnc2c1ncn2[C@@H]1O[C@H](CO)[C@@H](O)[C@@H]1O,CCRF-HSB-2,,52 µM
Cn1cc2c3cc(Br)ccc3nc-2c2cc(Br)ccc21,3T3,MTT,2.585 µM
CCCCN1C(=O)c2ccccc2N(CCc2ccccc2)S1(=O)=O,MRC-5,,57.4 µM
COCCOc1cccc2c(N=NC(=O)c3ccccn3)[nH]c(N)c12,L6,,588 nM
O=S1(=O)N=C(OCC2CCCCC2)c2ccccc2N1Cc1ccc(Cl)c(Cl)c1,MRC-5,,5.5 µM
CCOC(=O)[C@@]1(C)CC[C@]2(C)CC[C@]3(C)C(=CC(=O)[C@@H]4[C@@]5(C)CC/C(=N\OCc6ccc(C#N)cc6)C(C)(C)[C@@H]5CC[C@]43C)[C@@H]2C1,K562,MTT,>100 µM
Nc1nc(OC[C@H]2CC[C@@H](COCc3ccccc3)O2)cc(OC[C@@H]2CC[C@H](COCc3ccccc3)O2)n1,PC-3,,20 µM
CCOC(=O)[C@@]1(C)CC[C@]2(C)CC[C@]3(C)C(=CC(=O)[C@@H]4[C@@]5(C)CC/C(=N\OCc6ccccc6Cl)C(C)(C)[C@@H]5CC[C@]43C)[C@@H]2C1,K562,MTT,73.69 µM
Nc1[nH]c(N=NC(=O)c2ccccn2)c2cccc(Sc3ccccc3F)c12,L6,,11 nM
Cc1c(Cl)cccc1NC(=O)NCCc1ccc2c(n1)NCCC2,PBMC,,2.2 µM
CCN(CC)C(=S)OCC1CN(C(=O)c2cc(OC)c(OC)c(OC)c2)CCN1C(=O)c1cc(OC)c(OC)c(OC)c1,MDM,,<10 µM
COc1cc(NC(C)CCCNC(=O)OC(C)(C)C)c2nc(C(F)(F)F)cc(C)c2c1-c1ccc(C(F)(F)F)cc1,RAW 264.7,,>48 µg/mL
OCC(CO)OCn1c(Cl)nc2cc(Cl)c(Cl)cc21,KB,,>100 µM
CCCNC(=O)Oc1ccc(Cl)cc1C(=O)Nc1ccc(Cl)c(Cl)c1,Mono Mac 6,MTT,7 µM
C[C@H](O)Cc1cc2c(O[C@H]3O[C@H](CO)[C@@H](O)[C@H]3O)ccc(O)c2c(=O)o1,SW-480,MTT,>40 µg/mL
COC(=O)c1ccc(NC(=O)NCCc2ccc3c(n2)NCCC3)cc1,PBMC,,50 µM
CC1COc2c(N3CCn4cc(C(=O)O)nc4C3)c(F)cc3c(=O)c(C(=O)O)cn1c23,Mammalian Vero cells,MTT,>145.9 µM
COc1ccc(CN2CC[C@@H](N3CC(=O)N4[C@H](c5ccc6c(c5)OCO6)c5[nH]c6ccccc6c5C[C@@H]4C3=O)C2)cc1,MRC-5 SV2 cells,resazurin,8 µM
O=C(NCCCl)Oc1ccc(Br)cc1C(=O)Nc1ccc(Cl)c(Cl)c1,Mono Mac 6,MTT,6.9 µM
CC1COc2c(N3CCSCC3)c(F)c([N+](=O)[O-])c3c(=O)c(C(=O)O)cn1c23,Mammalian Vero cells,MTT,153 µM
O=C(NCCCCl)Oc1ccc(Br)cc1C(=O)Nc1ccc(Cl)c(Cl)c1,Mono Mac 6,MTT,9.5 µM
Nc1nc(Cl)cc(OC[C@H]2O[C@H](COCc3ccccc3)[C@@H](OCc3ccccc3)[C@H]2OCc2ccccc2)n1,PC-3,,>250 µM
OCC(CO)OCn1c(Cl)nc2c(Cl)c(Cl)ccc21,KB,,>100 µM
O=C(NCCc1ccc2c(n1)NCCC2)Nc1ccc(F)c(Cl)c1,PBMC,,3.2 µM
Oc1cc(-c2ccc(F)cc2)ccc1Oc1ccc(Cl)cc1Cl,Human foreskin fibroblasts,fluorescence,>10 µM
O=C(Oc1ccc(Cl)cc1C(=O)Nc1ccc(C(F)(F)F)cc1)c1cnc(Cl)cn1,Mono Mac 6,MTT,1.1 µM
O=C(NCCc1cccc(-n2ccnc2)n1)Nc1cccc(C(F)(F)F)c1F,PBMC,,15 µM
CCc1cn([C@@H]2O[C@H](CO)[C@@H](O)[C@@H]2F)c(=O)[nH]c1=O,CCRF-HSB-2,,>366 µM
O=C(NCCCCl)Oc1ccc(Cl)cc1C(=O)Nc1ccc(C(=O)c2ccccc2)cc1,Mono Mac 6,MTT,16.1 µM
COc1cc(Br)cc(-c2oc3ccccc3c(=O)c2O)c1OC,CHO,MTS / absorbance,25.5 µM
CCOC(=O)[C@@]1(C)CC[C@]2(C)CC[C@]3(C)C(=CC(=O)[C@@H]4[C@@]5(C)CC/C(=N\OCc6ccccc6Br)C(C)(C)[C@@H]5CC[C@]43C)[C@@H]2C1,CT26,MTT,45.14 µM
OCc1c(Cl)ccc(Oc2ccc(Cl)cc2Cl)c1O,Human foreskin fibroblasts,fluorescence,>10 µM
Nc1cc(OC[C@@H]2O[C@H](CO)[C@@H](O)[C@H]2O)nc(N)n1,PC-3,,>250 µM
CC(C)c1ccccc1NC(=O)NCCc1ccc2c(n1)NCCC2,PBMC,,0.8 µM
Nc1nc(N)c2ncn([C@@H]3S[C@H](CO)[C@@H](O)[C@@H]3F)c2n1,CCRF-HSB-2,,7 µM
Nc1cc(OCC2O[C@H](COCc3ccccc3)[C@@H](OCc3ccccc3)[C@H]2OCc2ccccc2)nc(N)n1,CAKI-1,,22 µM
COc1ccc(Br)cc1-c1cc(=O)c2c(OCc3ccccc3)cccc2o1,CHO,MTS / absorbance,25.5 µM
Oc1c(Oc2ccc(Cl)cc2Cl)ccc(Cl)c1Cc1ccccc1Cl,Human foreskin fibroblasts,fluorescence,>10 µM
Nc1[nH]c(N=NC(=O)c2ccccn2)c2cccc(Sc3ccc(F)cc3)c12,L6,,6 nM
COc1cc(NC(C)CCCN)c2nc(C(F)(F)F)cc(C)c2c1-c1ccc(C(F)(F)F)cc1,RAW 264.7,,10.1 µg/mL
O=c1[nH]c(=O)n([C@@H]2S[C@H](CO)[C@@H](O)[C@@H]2F)cc1I,CCRF-HSB-2,,144 µM
CC(C)COC1=NS(=O)(=O)N(Cc2ccc(Cl)cc2)c2ccccc21,MRC-5,,65.9 µM
Nc1cc(OC[C@H]2CC[C@@H](CO)O2)ncn1,CAKI-1,,154 µM
O=C(NCCCCl)Oc1ccc(Br)cc1C(=O)Nc1ccc(C(F)(F)F)cc1,Mono Mac 6,MTT,5.7 µM
CCOC(=O)c1cnc2ccc3c(C)cc(=O)[nH]c3c2c1C,CAKI-1,,11 µg/mL
CN(C(=O)CCc1ccc2c(n1)NCCC2)c1ccc(C(F)(F)F)cc1,PBMC,,22 µM
COc1ccccc1-c1cc(=O)c2ccccc2o1,CHO,MTS / absorbance,25.5 µM
Nc1nc2c(sc(=O)n2C/C=C\CO)c(=O)[nH]1,HFF (static),,>100 µM
Nc1nc2c(ncn2[C@@H]2S[C@H](CO)[C@@H](O)[C@@H]2F)c(=O)[nH]1,CCRF-HSB-2,,11.9 µM
Nc1cc(OC[C@H]2CC[C@@H](COCc3ccccc3)O2)ncn1,L1210,,182 µM
Cn1cncc1C(=O)c1nccc2c1[nH]c1ccccc12,H-116,,>5 µg/mL
CN(CCc1ccc2c(n1)NCCC2)C(=O)N(C)c1cccc(F)c1,PBMC,,50 µM
CCOc1ccc(Cl)cc1-c1oc2ccccc2c(=O)c1O,CHO,MTS / absorbance,25.5 µM
O=C(NCCCl)Oc1ccc(Br)cc1C(=O)Nc1ccc(C(F)(F)F)cc1,Mono Mac 6,MTT,9.3 µM
Cn1cc2c3ccccc3nc-2c2ccc(Cl)cc21,3T3,MTT,2.263 µM

For reference, 9 entries again:

smiles,cells,read by,result
O=C(NCCCCl)Oc1ccc(Br)cc1C(=O)Nc1ccc(C(F)(F)F)cc1,Mono Mac 6,MTT,5.7 µM
O=C(NCCc1cccc(-n2ccnc2)n1)Nc1cccc(C(F)(F)F)c1F,PBMC,,15 µM
O=C(c1ccccc1)c1ccc(NC(=O)c2cc(Br)ccc2O)cc1,Mono Mac 6,MTT,21.8 µM
COc1ccccc1CNC(=O)NCCc1ccc2c(n1)NCCC2,PBMC,,50 µM
O=S1(=O)N=C(OCC2CCCCC2)c2ccccc2N1Cc1ccc(Cl)c(Cl)c1,MRC-5,,5.5 µM
O=C1[C@H]2Cc3c([nH]c4ccccc34)[C@@H](c3ccc4c(c3)OCO4)N2C(=O)CN1[C@@H]1CCN(Cc2ccc3c(c2)OCO3)C1,MRC-5 SV2,resazurin,39 µM
OCC(CO)OCn1c(Cl)nc2c(Cl)c(Cl)ccc21,KB,,>100 µM
CCOc1ccc(Cl)cc1-c1oc2ccccc2c(=O)c1O,CHO,MTS / absorbance,25.5 µM
Cn1cc2c3cc(Br)ccc3nc-2c2cc(Br)ccc21,3T3,MTT,2.585 µM

Blank or dashed fields: not listed here. Lines come from different laboratories, so protocols vary.